Measured values taken from patent publication US20240238428A1 (priority 2021, published 2024).

Biological target: HIV viral gp120 protein (on virus) (HIV-1)
Test: cell-based or functional assay

B1: CD4 12-mer selenopeptide Se-… (peptide)
peptide: TYICEVEDQKEE
modifications: not checked
- fold increase in effectiveness at preventing infection over the peptide without selenium: 50 fold
